# According to the supplement of paper PMC3578754:
# Fold change is the IC50 on the isolate divided by the IC50 on a reference virus; 1 = unchanged, higher = more resistant. Changes are given against the subtype B consensus. No active / inactive call. The values were gathered from many studies (numbered anew) with different assays, which the source does not name. Most viruses are clinical isolates; some are laboratory strains or clones with known resistance changes. Isolates with mixed residues are left out; stretches that were not sequenced show no change. Round top values that many isolates share are read here as limits; other very high values and 0.1 may be limits too. For some assays here: The protease changes I3V and N37S, insertions and deletions cannot be read from the source.
# Tests used:
# tipranavir = compound: CCC[C@@]1(CCc2ccccc2)CC(O)=C([C@H](CC)c2cccc(NS(=O)(=O)c3ccc(C(F)(F)F)cn3)c2)C(=O)O1 [tipranavir]; experiment: fold change of IC50 against reference virus; higher = more resistant; Cell-culture drug susceptibility tests of virus bearing the protease of each isolate, gathered from many studies.
# ritonavir = compound: CC(C)c1nc(CN(C)C(=O)N[C@H](C(=O)N[C@@H](Cc2ccccc2)C[C@H](O)[C@H](Cc2ccccc2)NC(=O)OCc2cncs2)C(C)C)cs1 [ritonavir]; experiment: as above
# indinavir = compound: CC(C)(C)NC(=O)[C@@H]1CN(Cc2cccnc2)CCN1C[C@@H](O)C[C@@H](Cc1ccccc1)C(=O)N[C@H]1c2ccccc2C[C@H]1O [indinavir]; experiment: as above
# efavirenz = compound: O=C1Nc2ccc(Cl)cc2[C@@](C#CC2CC2)(C(F)(F)F)O1 [efavirenz]; experiment: fold change of IC50 against reference virus; higher = more resistant
# Method: (§1)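 Cell-culture drug susceptibility tests of virus bearing the reverse transcriptase of each isolate, gathered from many studies.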
# didanosine = compound: O=c1[nH]cnc2c1ncn2[C@H]1CC[C@@H](CO)O1 [didanosine]; experiment: as above
# Method: as §1
# zalcitabine = compound: Nc1ccn([C@H]2CC[C@@H](CO)O2)c(=O)n1 [zalcitabine]; experiment: as above
# Method: as §1
# delavirdine = compound: CC(C)Nc1cccnc1N1CCN(C(=O)c2cc3cc(NS(C)(=O)=O)ccc3[nH]2)CC1 [delavirdine]; experiment: as above
# Method: as §1
# nevirapine = compound: Cc1ccnc2c1NC(=O)c1cccnc1N2C1CC1 [nevirapine]; experiment: as above
# Method: as §1
# stavudine = compound: Cc1cn([C@H]2C=C[C@@H](CO)O2)c(=O)[nH]c1=O [stavudine]; experiment: as above
# Method: as §1
# zidovudine = compound: Cc1cn([C@H]2C[C@H](N=[N+]=[N-])[C@@H](CO)O2)c(=O)[nH]c1=O [zidovudine]; experiment: as above
# Method: as §1
# abacavir = compound: Nc1nc(NC2CC2)c2ncn([C@H]3C=C[C@@H](CO)C3)c2n1 [abacavir]; experiment: as above
# Method: as §1
Test System,fold change of IC50 against reference virus (tipranavir),fold change of IC50 against reference virus (efavirenz),fold change of IC50 against reference virus (didanosine),fold change of IC50 against reference virus (zalcitabine),fold change of IC50 against reference virus (delavirdine),fold change of IC50 against reference virus (nevirapine),fold change of IC50 against reference virus (stavudine),fold change of IC50 against reference virus (zidovudine),fold change of IC50 against reference virus (abacavir),also measured
"HIV-1 isolate 145 (protease changes: I15V M36I R41K L63P H69K L89M I93L, study 87)",1.1,,,,,,,,,
"HIV-1 isolate 165 (protease changes: L10I I13V K14R K20I M36I R41K I64L H69K K70R L89M, study 87)",0.6,,,,,,,,,
"HIV-1 isolate 278 (protease changes: I13V K14R K20I E35D M36I R41K H69K V82I L89M, study 87)",0.8,,,,,,,,,
"HIV-1 isolate 280 (protease changes: L10I I15V G17D L19W K20I M36I M46I I47V I54V I62V L63P A71V I72N G73T I84V I85V L90M I93L, study 124)",11,,,,,,,,,
"HIV-1 isolate 373 (protease changes: L10I I13V K20I E35Q M36I R41K R57K L63S C67E H69K V82I L89M, study 87)",2,,,,,,,,,
"HIV-1 isolate 380 (protease changes: L10I K20R M36I I54V I62V L63A A71V V82A L90M, study 132)",3,,,,,,,,,fold change of IC50 against reference virus (ritonavir): 67; fold change of IC50 against reference virus (indinavir): 20
"HIV-1 isolate 472 (protease changes: none, study 122)",1,,,,,,,,,
"HIV-1 isolate 501 (protease changes: K70R, study 132)",1,,,,,,,,,fold change of IC50 against reference virus (ritonavir): 1; fold change of IC50 against reference virus (indinavir): 1
"HIV-1 isolate 629 (protease changes: I13V K14R K20I E35D M36I R41K H69K V82I L89M, study 87)",0.7,,,,,,,,,
"HIV-1 isolate 643 (protease changes: I13V K14R K20I M36I R41K I64M H69K K70R V82I L89M, study 87)",0.6,,,,,,,,,
"HIV-1 isolate 959 (protease changes: L10I I13V K14R I15V K20I E35Q M36I R41K R57K C67E H69K V82I L89M, study 87)",1.3,,,,,,,,,
"HIV-1 isolate 1049 (protease changes: I15V G17D K20R E35D M36I R41K R57K Q61N E65D I72T, study 87)",2.1,,,,,,,,,
"HIV-1 isolate 1072 (protease changes: I13V V32I L33F M36I K45I R57G A71V V82L I84V, study 76)",28,,,,,,,,,
"HIV-1 isolate 1093 (protease changes: T12V E35D M36I R41K R57K Q61N, study 87)",1.6,,,,,,,,,
"HIV-1 isolate 1112 (protease changes: I13A K14R K20I M36I N37D R41K H69K L89I, study 87)",1,,,,,,,,,
"HIV-1 isolate 1207 (protease changes: I62V L63A, study 132)",1,,,,,,,,,fold change of IC50 against reference virus (ritonavir): 1; fold change of IC50 against reference virus (indinavir): 1
"HIV-1 isolate 1213 (protease changes: L10F E35D L63P A71V T74P I84V L90M I93L, study 124)",1.5,,,,,,,,,
"HIV-1 isolate 1231 (reverse transcriptase changes: P4S V35I E40F M41L K43E D67E S68G K70T V75M K103N V118I K122V A158T K166R D177E T200A Q207E L210W R211K T215Y, study 40)",,23,7,4,77,159,24,79,9,
"HIV-1 isolate 1240 (protease changes: L33F R57G I84V, study 76)",1.7,,,,,,,,,

Test System,fold change of IC50 against reference virus (tipranavir),fold change of IC50 against reference virus (efavirenz),fold change of IC50 against reference virus (didanosine),fold change of IC50 against reference virus (zalcitabine),fold change of IC50 against reference virus (delavirdine),fold change of IC50 against reference virus (nevirapine),fold change of IC50 against reference virus (stavudine),fold change of IC50 against reference virus (zidovudine),fold change of IC50 against reference virus (abacavir),also measured
"HIV-1 isolate 1255 (reverse transcriptase changes: M41L A98S M184V R211K T215F, study 28)",,0.4,1.3,1.8,0.4,0.9,1.4,3.9,6.1,
"HIV-1 isolate 1265 (reverse transcriptase changes: V35I R83K K122E I135V S162C A272P Q278N V292I G333E Q334H M357T K366R K390R A400T, study 54)",,0.3,0.7,0.6,0.4,0.2,0.8,0.6,0.7,
"HIV-1 isolate 1270 (reverse transcriptase changes: V60I D121Y K122E D177E M184V, study 28)",,0.5,1.1,1.7,0.8,0.4,0.7,0.5,3.7,
"HIV-1 isolate 1382 (reverse transcriptase changes: V118I D123E I135T R211K F214L A272P K281R T286P I293V E297K, study 15)",,0.7,1.1,0.8,0.8,0.9,0.9,1,1,
"HIV-1 isolate 1393 (reverse transcriptase changes: R83K M184V R211K, study 28)",,0.5,1.3,1.7,0.9,0.5,0.8,0.5,2.8,
"HIV-1 isolate 1409 (protease changes: K14R M36I L63P, study 132)",1,,,,,,,,,fold change of IC50 against reference virus (ritonavir): 1; fold change of IC50 against reference virus (indinavir): 1
"HIV-1 isolate 1426 (reverse transcriptase changes: D67N K70R L74V A98S L100I K103N I135T K166R M184V R211K F214L K219Q H221Y L228R V245M A272P K277R T286A E297K, study 15)",,1500,2.4,2.3,400,215,1.3,1.6,7.4,
"HIV-1 isolate 1428 (reverse transcriptase changes: V35T V60I I135V I142V M184V R211K V245E A272P K277R L283I I293V E297A, study 40)",,1,1,1,1,1,1,1,2,
"HIV-1 isolate 1466 (protease changes: I13V K14R L19P K20I E35D M36I R41K H69K V82I L89M, study 87)",1.3,,,,,,,,,
"HIV-1 isolate 1477 (protease changes: L10I I13V K20I E35Q M36I N37D R41K K43R R57K C67E H69K V82I L89M, study 87)",0.8,,,,,,,,,
"HIV-1 isolate 1485 (protease changes: L10V I13V K14R L19P K20I M36I R41K L63P H69K K70R I72M L89M, study 87)",1,,,,,,,,,
"HIV-1 isolate 1504 (protease changes: K14R K20R M36I I54V I62V A71V V82A L90M, study 132)",2,,,,,,,,,fold change of IC50 against reference virus (ritonavir): 64
"HIV-1 isolate 1511 (reverse transcriptase changes: T128A I135T T165I T200A F214L A272T I293V K366R A376T A400T, study 54)",,0.9,1,1.1,0.8,0.9,1.1,0.9,1,
"HIV-1 isolate 1513 (reverse transcriptase changes: M41L E44D K104R D123E I142V V179I Y181V T200I T215Y Q242K V245E A272P K277R E297K, study 40)",,2,3,2,37,166,1,8,4,
"HIV-1 isolate 1536 (protease changes: T12S L19I M36I R41K L63V H69K T74S V77I L89M I93L, study 87)",0.8,,,,,,,,,
"HIV-1 isolate 1542 (protease changes: I13V V32I L33F K45I R57G I84V, study 76)",7,,,,,,,,,
"HIV-1 isolate 1568 (reverse transcriptase changes: I178M M184V, study 28)",,0.4,1.3,1.9,0.9,0.7,0.6,0.4,3.5,
"HIV-1 isolate 1571 (protease changes: M36I R41K I93L, study 87)",0.6,,,,,,,,,
"HIV-1 isolate 1588 (reverse transcriptase changes: V35I E40F M41L K43E S68G L74I A98G K103N V108I V118I K122E S162C M184V G190A L210W R211K T215Y K219N A272P K277R T286P A288P L289N, study 40)",,40,6,2,35,69,2,103,10,
